System: mice
Assay: Acetic acid induced writhing in mice (analgesic effect)

N=C1NCC2C3OC4(O)OC([C@@H](O)C2(N1)[C@@H]4O)C3(O)CO (stereo partly shown)
analgesic effect, times lower than that of tetrodotoxin: approximately 330 times

Source: patent publication US8124608B2, “Stable pharmaceutical composition of freeze-dried tetrodotoxin powder” (dated 2012)
